{"source": "PubChem BioAssay AID624099 (ICCB-Longwood, 2012)", "test": "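Knock-downs relieving repression by E2 of an HPV18 LCR luciferase reporter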 (primary screen)", "system": "human C33A cervical carcinoma cells (HPV-negative) stably expressing BPV1 E2 and an HPV18 LCR luciferase reporter", "reagent": "siRNA pool against human genes, 40 nM", "timing": "72 h", "measured": "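Per-well luciferase luminescence, z-scored on each plate against the plate mean and SD with control wells left out, then averaged across three replicate plates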", "direction": "mean z-score and z-score: higher = stronger reporter signal, weaker E2 silencing", "active means": "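Hit if mean z-score reaches 2 and two or more of three replicate z-scores also reach 2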", "note": "In all, the deposit lists about 21,000 reagents; shown is an unselected part. Of all reagents, 497 (2.4%) are marked active. 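Higher z means weaker E2 silencing; only reporter increases were scored, and knock-downs that hurt cell survival may mask genuine repressor factors.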 Reagent sequences are not shown."}
{"Target gene":"KRTAP10-10 (GeneID 353333)","PubChem SID":"SID134322673","mean z-score":0.81,"z-score, replicate A":1.24,"z-score, replicate B":0.49,"z-score, replicate C":0.69,"call":"inactive"}
{"Target gene":"LRRD1 (GeneID 401387)","PubChem SID":"SID134327792","mean z-score":-0.58,"z-score, replicate A":-0.49,"z-score, replicate C":-0.68,"call":"inactive"}
{"Target gene":"CAVIN2 (GeneID 8436)","PubChem SID":"SID134319926","mean z-score":-0.28,"z-score, replicate A":0.21,"z-score, replicate B":-0.37,"z-score, replicate C":-0.68,"call":"inactive"}
{"Target gene":"HOXA4 (GeneID 3201)","PubChem SID":"SID134316014","mean z-score":0.93,"z-score, replicate A":0.91,"z-score, replicate B":1.16,"z-score, replicate C":0.72,"call":"inactive"}
{"Target gene":"FZD2 (GeneID 2535)","PubChem SID":"SID134310944","mean z-score":2.3,"z-score, replicate A":1.78,"z-score, replicate B":2.55,"z-score, replicate C":2.58,"call":"active"}
{"Target gene":"ABHD2 (GeneID 11057)","PubChem SID":"SID134313210","mean z-score":1.21,"z-score, replicate A":1.7,"z-score, replicate B":1.05,"z-score, replicate C":0.89,"call":"inactive"}

2 entries from above, sorted by “z-score, replicate B”, low to high.
{"Target gene":"HOXA4 (GeneID 3201)","PubChem SID":"SID134316014","mean z-score":0.93,"z-score, replicate A":0.91,"z-score, replicate B":1.16,"z-score, replicate C":0.72,"call":"inactive"}
{"Target gene":"FZD2 (GeneID 2535)","PubChem SID":"SID134310944","mean z-score":2.3,"z-score, replicate A":1.78,"z-score, replicate B":2.55,"z-score, replicate C":2.58,"call":"active"}

Next reagents follow.
{"Target gene":"MIR3667HG (GeneID 348645)","PubChem SID":"SID134326126","mean z-score":-0.98,"z-score, replicate A":-1.06,"z-score, replicate B":-1.01,"z-score, replicate C":-0.86,"call":"inactive"}
{"Target gene":"SSC4D (GeneID 136853)","PubChem SID":"SID134313311","mean z-score":0.88,"z-score, replicate A":0.92,"z-score, replicate B":0.8,"z-score, replicate C":0.93,"call":"inactive"}
{"Target gene":"CIDEB (GeneID 27141)","PubChem SID":"SID134310446","mean z-score":-0.34,"z-score, replicate A":-0.45,"z-score, replicate B":-0.37,"z-score, replicate C":-0.18,"call":"inactive"}
{"Target gene":"MRC2 (GeneID 9902)","PubChem SID":"SID56479290","mean z-score":-0.87,"z-score, replicate A":-0.99,"z-score, replicate B":-0.85,"z-score, replicate C":-0.78,"call":"inactive"}
{"Target gene":"UBL7 (GeneID 84993)","PubChem SID":"SID134319107","mean z-score":-0.26,"z-score, replicate A":-0.14,"z-score, replicate B":-0.21,"z-score, replicate C":-0.44,"call":"inactive"}
{"Target gene":"OXCT1 (GeneID 5019)","PubChem SID":"SID134310247","mean z-score":0.43,"z-score, replicate A":0.51,"z-score, replicate B":0.34,"z-score, replicate C":0.43,"call":"inactive"}
